In paper PMC6709497, “Identification of Novel Trypanosoma cruzi Proteasome Inhibitors Using a Luminescence-Based High-Throughput Screening Assay” (Antimicrobial Agents and Chemotherapy, 2019):

System: T. cruzi strain Silvio X10/7 epimastigotes
Experiment: Cellular T. cruzi epimastigote viability assay
Format: cell-based, Trypanosoma cruzi
Conditions: cell-free pIC50 compared with cellular pEC50
Description: For the cell viability readout, BacTiter-Glo microbial cell viability reagent (Promega; catalogue no. G8230) was added to each well (25 μl) and incubated at room temperature for 5 min. The plates were then sealed with clear film, and the luminescence was read using a Victor 3 (PerkinElmer, USA) or Pherastar FS (BMG Labtech, Germany) plate reader with a 0.5-s per well reading time. Data for epoxomicin were obtained from three independent replicates (n = 3), and data for all the remaining compounds were acquired from four independent replicates (n = 4). RLU data were normalized to percent inhibition values relative to 100% effect (Nifurtimox) and 0% effect (DMSO; 1% [vol/vol] final assay concentration) control populations. Normalized data for each independent replicate were fitted separately to a four-parameter logistic regression model, and pEC50 {i.e., −log(EC50[M])} values were calculated using IBDS ActivityBase 8.1.2.12 software, after which a mean pEC50 value for each compound was calculated.

## oprozomib
  potency in cell-free chymotrypsin-like activity assay versus cellular assay: equipotency

## CC[C@H](C)[C@H](NC(=O)[C@H]([C@@H](C)CC)N(C)C(C)=O)C(=O)N[C@H](C(=O)N[C@@H](CC(C)C)C(=O)[C@@]1(C)CO1)[C@@H](C)O [Epoxomicin, epoxomicin]
  potency in cell-free chymotrypsin-like activity assay versus cellular assay: equipotency
